Laboratory results taken from publication PMC6385310 (Scientific Reports, 2019).

These molecules were tested on VEEV TC-83 virus expressing a luciferase reporter gene (TC-83-luc).
Type: cell-based, Venezuelan equine encephalitis virus

`C/C=C\[C@]1(O)CC[C@H]2[C@@H]3CCC4=CC(=O)CCC4=C3[C@@H](c3ccc(N(C)C)cc3)C[C@@]21C` [Compound 7, Aglepristone, reference compound] was tested, and the “SI, selectivity index (CC50/EC50)” value was greater than 3.95.

In order of falling “P3 ratio, EC50 of ketone analogue/EC50 of dioxolane analogue” value:
1. COc1ccc(C2C[C@@]3(C)[C@@H](CC[C@@]3(O)C#C[Si](C)(C)C)[C@@H]3CCC4=CC(=O)CCC4=C23)cc1 (stereo partly shown) [Compound 51]  3.21
2. COc1ccc(C#C[C@]2(O)CC[C@H]3[C@@H]4CCC5=CC(=O)CCC5=C4[C@@H](c4ccc(N(C)C)cc4)C[C@@]32C)cc1 [Compound 39]  3.06
3. C[C@]12C[C@H](c3ccc(-c4ccccc4)cc3)C3=C4CCC(=O)C=C4CC[C@H]3[C@@H]1CC[C@@]2(O)C#C[Si](C)(C)C [Compound 53]  1.56
4. CN(C)c1ccc([C@H]2C[C@@]3(C)[C@@H](CC[C@@]3(O)C#Cc3ccccc3)[C@@H]3CCC4=CC(=O)CCC4=C32)cc1 [Compound 38]  1.18
5. CC[Si](C#C[C@]1(O)CC[C@H]2[C@@H]3CCC4=CC(=O)CCC4=C3[C@@H](c3ccc(N(C)C)cc3)C[C@@]21C)(CC)CC [Compound 34]  0.91
6. CN(C)c1cccc([C@H]2C[C@@]3(C)[C@@H](CC[C@@]3(O)C#C[Si](C)(C)C)[C@@H]3CCC4=CC(=O)CCC4=C32)c1 [Compound 54]  0.80
7. CN(C)c1ccc([C@H]2C[C@@]3(C)[C@@H](CC[C@@]3(O)C#C[Si](C)(C)C)[C@@H]3CCC4=CC(=O)CCC4=C32)cc1 [Compound 33]  0.77
8. CC(C)[Si](C#C[C@]1(O)CC[C@H]2[C@@H]3CCC4=CC(=O)CCC4=C3[C@@H](c3ccc(N(C)C)cc3)C[C@@]21C)(C(C)C)C(C)C [Compound 35]  0.74
9. CN(C)c1ccc([C@H]2C[C@@]3(C)[C@@H](CC[C@@]3(O)C#CC(F)(F)F)[C@@H]3CCC4=CC(=O)CCC4=C32)cc1 [Compound 9, Trifluoromethylmifepristone]  0.64
